From PubChem BioAssay AID602399 (Sanford-Burnham Center for Chemical Genomics, 2012) come the findings set out here.

Molecules are shown by their SMILES. The entries are a selection whose mix differs from that of the whole data set. Calls of active or inactive are those of the source. Cut-off read from the data, not from the text of the source: active = inhibition above about 26%; inactive = the rest.

The test deals with Nicotinate-nucleotide adenylyltransferase NadD (Staphylococcus aureus N315). In words: inhibitors of S. aureus NadD, primary screen, biochemical, colorimetric, uHTS (AID 602399). Conditions: purified NadD enzyme, colorimetric absorbance read-out; at 20 µM; stronger effect = higher value.
Turning to `Clc1ccc(Cl)c(NC2=NCC(CBr)S2)c1` (stereo not drawn), the inhibition is inactive: 5.74%. Consider `C[N+]1=C2C=CC=CC=C2SC12C([N+](=O)[O-])=CC([N+](=O)[O-])=C[C-]2[N+](=O)[O-]` (stereo not drawn), for which the inhibition is inactive: 11.7%.

Regarding `Nc1ccc([As](=O)(O)c2ccc(N)cc2)cc1`, the inhibition is inactive: -4.61%. Under `CCN(/C(=N/P(=O)(N1CCOCC1)N1CCOCC1)N1CCOCC1)c1ccc(OC)cc1` stands inactive: 6.88%; under `CN(C)C(=O)OCCc1n(C)cc[n+]1C`, inactive: 3.22%.

Take `CC(C)c1nc(Nc2ccccc2)n(P(=O)(N(C)C)N(C)C)n1`: the inhibition is inactive: -4.26%. For the compound `CC(C)=N/N=C(\N)N[N+](=O)[O-]`, the inhibition is inactive: -5.85%. For `CC1CCN(C(=O)Oc2c(Cl)cc(Cl)c3cccnc23)CC1`, the inhibition was inactive: 1.14%. Under `c1cc(-c2nn[nH]n2)ccc1-c1nn[nH]n1` stands inactive: -1.82%; under `COc1ccc(C2=NCC(CBr)S2)cc1` (stereo not drawn), inactive: -5.1%; under `O=[N+]([O-])c1cccc2n[nH]nc12`, inactive: 3.54%. Take `CC(=O)N1C2C3N(C(C)=O)C1C1N(C(C)=O)C(C(N1C(C)=O)N3C(C)=O)N2C(C)=O`: the inhibition was inactive: 3.94%. The same measure for `CCc1nc2c(n1)c1c(non1O)c1c2no[n+]1[O-]`: inactive: 8.98%. In the case of `O=[N+]([O-])c1cc([N+](=O)[O-])c(CCNc2ccccc2)c([N+](=O)[O-])c1`, the inhibition was inactive: 3.77%. The same measure for `Cc1ccc(NP(=O)(Oc2ccccc2)Oc2ccccc2)nc1`: inactive: -4.28%; for `CC(C)(C)C(=O)NC(Sc1ccncn1)C(Cl)(Cl)Cl` (stereo not drawn): inactive: 0.519%. The same measure for `O=[N+]([O-])c1ncn(CCn2ncnc2[N+](=O)[O-])n1`: inactive: 11.6%; for `COC(=O)C1(C)COP(=O)(Nc2ccccc2)OC1` (stereo not drawn): inactive: -3.57%; for `O=[N+]([O-])c1cccc(NC2=NCC(CBr)S2)c1` (stereo not drawn): inactive: -6.04%.

Consider `O=C(O)CNc1ccc([As](=O)(O)O)cc1`, for which the inhibition was inactive: -7.7%. For `O=P1(N(CCCl)CCCl)OCCCS1` (stereo not drawn), the inhibition is inactive: -1.33%.

On to `O=C(Nc1cc([As](=O)(O)O)ccc1O)c1ccccc1`, for which the inhibition is inactive: -6.91%. Take `CCOC(=O)Nc1cccc([As](=O)(O)O)c1`: the inhibition is inactive: -3.04%. Turning to `O=[N+]([O-])c1ccc(Nc2ccc(Oc3ccc([N+](=O)[O-])cc3[N+](=O)[O-])cc2)c([N+](=O)[O-])c1`, the inhibition is inactive: 7.14%.

`O=P(Nc1ccccn1)(c1cccc2ccccc12)c1cccc2ccccc12`: the inhibition is inactive: 14.9%. For the compound `Cc1cc(SC(NC=O)C(Cl)(Cl)Cl)ncn1` (stereo not drawn), the inhibition was inactive: 4.42%. The same measure for `CC1CCNP(=O)(N(CCCl)CCCl)O1` (stereo not drawn): inactive: -6.54%. Take `CCOC(=O)Nc1ccc([As](=O)(O)O)c(O)c1`: the inhibition was inactive: -3.75%. As to `O=C(O)C(O)c1ccc(N(CCCl)CCCl)cc1` (stereo not drawn), the inhibition is inactive: 0.685%. Take `Cc1cc(SC(NC(=O)c2ccccc2)C(Cl)(Cl)Cl)nc(C(C)C)n1` (stereo not drawn): the inhibition was inactive: 2.13%.

In the case of `CCCCOc1ccc(C(=O)NCC2(N3CCCCC3)CCCCC2)cc1OC`, the inhibition is inactive: -4.41%. `COP(=O)(OC)N1CC1c1ccccc1` (stereo not drawn): the inhibition was inactive: -8.81%. For the compound `CCOC(=O)c1ccc(NC(=O)C(C)(CCl)SC)cc1` (stereo not drawn), the inhibition is inactive: -10.1%. On to `CSc1ccc(Nc2c([N+](=O)[O-])cc([N+](=O)[O-])cc2[N+](=O)[O-])cc1`, for which the inhibition was inactive: -4.41%. Under `O=C(OC1CN2CCC1CC2)c1cccc([N+](=O)[O-])c1` (stereo not drawn) stands inactive: -8.11%; under `CCC(C)N(CC(C)C)C(=S)SC(NC(C)=O)C(Cl)(Cl)Cl` (stereo not drawn), inactive: -5.53%. The same measure for `COC(=O)C1(C)COP(=O)(N2CCCC2)OC1` (stereo not drawn): inactive: 5.49%; for `COP1(=S)c2c(C)nn(CCC#N)c2N=C(c2ccc(F)cc2)N1C` (stereo not drawn): inactive: -2.75%; for `O=C(Nc1ccncc1[N+](=O)[O-])c1ccc([N+](=O)[O-])cc1[N+](=O)[O-]`: inactive: -0.18%.

Regarding `O=C(COc1ccccc1)OC1CN2CCC1CC2` (stereo not drawn), the inhibition is inactive: -3.9%. Turning to `O=C(O)C(=O)c1ccc(N(CCCl)CCCl)cc1`, the inhibition was inactive: -0.152%.

For the compound `COc1ccc(N/C(=N/P(=O)(N2CCOCC2)N2CCOCC2)N2CCOCC2)cc1`, the inhibition is inactive: -6.12%. As for `O=[N+]([O-])c1cc(Oc2ccc([N+](=O)[O-])cc2C(F)(F)F)cc([N+](=O)[O-])c1`, the inhibition is inactive: -1.78%. The same measure for `Cc1cc(=O)[nH]c(N[N+](=O)[O-])n1`: inactive: 2.22%. The same measure for `O=C(OC1CN2CCC1CC2)C12CC3CC(CC(C3)C1)C2` (stereo not drawn): inactive: -4.05%; for `Cc1c2c(nc3ccccc13)SC(C(Cl)Cl)C2` (stereo not drawn): inactive: 2.03%. In the case of `COc1cc(I)ccc1[As](=O)(O)O`, the inhibition is inactive: -3.57%.

Consider `COc1ccc2nc(NP(=O)(c3ccccc3)c3ccccc3)sc2c1`, for which the inhibition was inactive: 2.2%. As to `O=P1(N(CCCl)CCCl)Nc2ccccc2N1`, the inhibition was inactive: -23.6%.

`O=P1(N(CCCl)CCCl)OCCCN1CCCl` (stereo not drawn): the inhibition was inactive: 0.972%. The same measure for `COC(=O)C1(C)COP(=O)(N2CCCCCC2)OC1` (stereo not drawn): inactive: -1.78%. In the case of `CC(C)c1ccc(OP(=O)(Nc2ccccn2)Oc2ccccc2F)cc1` (stereo not drawn), the inhibition is inactive: 1.55%. Take `ClCCSc1nnc(-c2cccnc2)o1`: the inhibition was inactive: 0.738%. As for `O=[N+]([O-])c1cc([N+](=O)[O-])c(-c2ccn[nH]2)s1`, the inhibition is inactive: -3.42%. The same measure for `CC(C)NC(=O)NP(=O)(Oc1ccccc1)Oc1ccccc1`: inactive: -0.503%; for `O=C(OC1CN2CCC1CC2)c1cccc2[nH]cnc12` (stereo not drawn): inactive: -6.88%; for `CCN(CC)C(=S)SC(NC=O)C(Cl)(Cl)Cl` (stereo not drawn): inactive: 4.52%.

In the case of `O=[N+]([O-])c1ccc(-c2cc([N+](=O)[O-])c(O)c([N+](=O)[O-])c2)cc1`, the inhibition was inactive: 3.07%. Under `COc1cc(C(=O)NCC2(N3CCOCC3)CCCCC2)ccc1OCC(C)C` stands inactive: -7.01%; under `O=[As](O)(c1ccc(O)cc1)c1ccccc1O`, inactive: -0.609%. Consider `C[As](=O)(O)c1cccc(C(=O)O)c1`, for which the inhibition was inactive: -3.82%.

With `Cc1ccc2nc3c(c(C)c2c1)CC(C(Cl)Cl)S3` (stereo not drawn), the inhibition is inactive: 9.05%. The same measure for `[N-]=[N+]=NC1CCCCC1NC(=O)c1cc([N+](=O)[O-])cc([N+](=O)[O-])c1` (stereo not drawn): inactive: -0.652%; for `Cc1ccc(OP(=O)(Nc2ccc([N+](=O)[O-])cn2)Oc2ccc(C)cc2)cc1`: inactive: -4.14%; for `NC(=O)Nc1ccc([As](=O)(O)O)cc1`: inactive: -0.758%. As to `CN(C(=O)Cc1ccc(Cl)c(Cl)c1)[C@H]1CC[C@@]2(CCCO2)C[C@@H]1N1CCCC1`, the inhibition was inactive: -4.75%. The same measure for `O=[N+]([O-])c1ccc2c(c1)nnn2O`: inactive: -9.52%. The same measure for `CN(C)C(=O)c1cc([N+](=O)[O-])cc2c1-c1c(cc([N+](=O)[O-])cc1[N+](=O)[O-])C2=O`: inactive: -0.0767%; for `CN(C(=O)Cc1ccccc1)[C@@H]1CC[C@]2(CCCO2)C[C@H]1N1CCCC1`: inactive: -4.61%; for `CCOP1(=S)c2c(C)nn(CCC#N)c2N=C(c2ccc(F)cc2)N1C` (stereo not drawn): inactive: 0.244%. The same measure for `N#CCCN(C(=O)COC(=O)C(O)(c1ccccc1)c1ccccc1)c1ccc(F)cc1`: inactive: 1.3%; for `CS(=O)(=O)c1cc([N+](=O)[O-])c2no[n+]([O-])c2c1`: inactive: 7.82%; for `O=P(Nc1nccs1)(Oc1ccccc1)Oc1ccccc1`: inactive: -3.92%. On to `O=P(Nc1nccs1)(c1ccccc1)c1nc2ccccc2s1` (stereo not drawn), for which the inhibition was inactive: 12.6%. For the compound `CCOP1(=S)c2c(C)nn(CCC#N)c2N=C(c2ccccc2F)N1C` (stereo not drawn), the inhibition was inactive: -5.96%. For `Nc1ccccc1[As](=O)(O)c1ccccc1`, the inhibition was inactive: -6.37%. The same measure for `O=C(O)COc1ccc([As](=O)(O)O)cc1[N+](=O)[O-]`: inactive: -3.93%; for `CCCOP(=S)(Nc1nc(N)cc(=O)[nH]1)OCCC`: inactive: 2.41%; for `Nc1cccc2c([As](=O)(O)O)cccc12`: inactive: -0.24%. For `Cc1ccc(NCCc2c([N+](=O)[O-])cc([N+](=O)[O-])cc2[N+](=O)[O-])cc1`, the inhibition was inactive: 13.2%. As for `CCOP(=O)(Nc1cccc2ccccc12)OCC`, the inhibition is inactive: -0.472%. For the compound `COc1cc(C2NCCC3(OCCO3)C2(C)C)cc(OC)c1OC` (stereo not drawn), the inhibition was inactive: -5.23%. On to `CS(=O)(=O)c1ccc(Cl)c(NC(=O)COC(=O)C(O)(c2ccccc2)c2ccccc2)c1`, for which the inhibition is inactive: -7.49%. `O=[As](O)(O)c1cccnc1`: the inhibition is inactive: -7.91%. In the case of `COc1cc(C(=O)NCC2(N3CCOCC3)CCCCC2)cc(Cl)c1OC(C)C`, the inhibition was inactive: 3.56%. The same measure for `O=C(OC1CN2CCC1CC2)c1ccc(Cl)cc1` (stereo not drawn): inactive: -1.58%; for `Cc1cccc(OCC(=O)OC2CN3CCC2CC3)c1` (stereo not drawn): inactive: -3.37%. `O=[As](O)(c1cccc(O)c1)c1cccc(O)c1`: the inhibition was inactive: -9.42%. Consider `COc1ccccc1CNC(=O)COC(=O)C(O)(c1ccccc1)c1ccccc1`, for which the inhibition was inactive: -4.97%. Under `CC1(CBr)Cn2c(nc3ccccc3c2=O)S1` (stereo not drawn) stands inactive: -1.09%. The same measure for `CC(C)/C=N\N=C(\N)N[N+](=O)[O-]`: inactive: -5.46%; for `CN(C(=O)Cc1ccc(Cl)c(Cl)c1)[C@@H]1CCCC[C@H]1N1CCCC1`: inactive: -0.704%.

In the case of `CCOP(=O)(Nc1ccc(C)cn1)OCC`, the inhibition was inactive: -5.12%.

In the case of `CN(CCCl)Cc1cc(Cl)c(NC2=NCCN2)c(Cl)c1`, the inhibition is inactive: -2.11%. For `CCOP(=O)(NC(=NC(C)c1ccccc1)NC(C)c1ccccc1)OCC` (stereo not drawn), the inhibition is inactive: -5.21%. The same measure for `O=P1(Nc2ccccn2)COc2ccccc2OC1`: inactive: -3.38%; for `CCC1=CC2Cc3nc4ccc(Cl)cc4c(N)c3C(C1)C2` (stereo not drawn): inactive: -6.36%; for `CC(C)(C)C(=O)NC(Sc1ncccn1)C(Cl)(Cl)Cl` (stereo not drawn): inactive: -1.48%. As to `O=P1(N(CCCl)CCCl)NCCC(C(F)(F)F)O1` (stereo not drawn), the inhibition was inactive: -1.7%.

As for `Clc1n[nH]nc1-c1nn[nH][15n]1`, the inhibition is inactive: -3.03%. Under `O=P1(Nc2ncccn2)COc2ccccc2OC1` stands inactive: -1.45%; under `Cc1ccc(S(=O)(=O)N(CCCN)CCCc2c(C)nc(N)[nH]c2=O)cc1`, inactive: 0.0819%; under `O=[As](O)(c1cccs1)c1cccs1`, inactive: -8.57%. On to `Cc1ccc(OCC(=O)OC2CN3CCC2CC3)cc1` (stereo not drawn), for which the inhibition was inactive: -3.87%. With `O=P1(Nc2ccc(Br)cn2)COc2ccccc2OC1`, the inhibition is inactive: -1.07%. Under `NS(=O)(=O)c1cccc(NC(=O)COC(=O)C(O)(c2ccccc2)c2ccccc2)c1` stands inactive: -3.5%; under `Nc1cccc([As](=O)(O)c2ccccc2)c1`, inactive: -5.83%; under `CC1CCC(C(C)C)C(OP(=O)(Nc2ccccn2)c2ccccc2)C1` (stereo not drawn), inactive: -3.5%.

As for `Cc1ccc(C(=O)OC2CN3CCC2CC3)cc1` (stereo not drawn), the inhibition is inactive: -7.32%. Consider `Cc1nn(-c2ccccc2)c2c1P(=O)(N1CCOCC1)N(C)C(c1ccccc1)=N2` (stereo not drawn), for which the inhibition is inactive: -0.439%. The same measure for `CCCC1OP(=O)(Nc2ccccc2)OCC1CC` (stereo not drawn): inactive: 1.3%.

Turning to `O=C(/C=C/c1ccccc1)OC1CN2CCC1CC2` (stereo not drawn), the inhibition is inactive: 0.0819%.

Turning to `CN(C)C1(CNC(=O)c2ccc(S(C)(=O)=O)cc2)CCCCC1`, the inhibition was inactive: -1.03%.

Broadly, the inhibition is the drop in the measured response relative to a control, in per cent.
